# Laboratory results: PubChem BioAssay AID624099 (ICCB-Longwood, 2012)
# Purpose: 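Host factors E2 relies on to silence an HPV18 LCR reporter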 (primary screen)
# Cell system: human C33A cervical carcinoma cells (HPV-negative) stably expressing BPV1 E2 and an HPV18 LCR luciferase reporter
# Reagent: siRNA pool against human genes, 40 nM
# Duration: 72 h
# Measured: 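Per-well luciferase luminescence, z-scored on each plate against the plate mean and SD with control wells left out, then averaged across three replicate plates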
# Scale: mean z-score and z-score: higher = stronger reporter signal, weaker E2 silencing
# Rule for the call: 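Mean z ≥ 2 together with z ≥ 2 in two or more of the three replicates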
# Shown is a random part of about 21,000 reagents tested. 497 of all reagents (2.4%) were called active. 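Higher z means weaker E2 silencing; only reporter increases were scored, and knock-downs that hurt cell survival may mask genuine repressor factors.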 No sequences are given here.
gene knocked down,mean z-score,"z-score, replicate A","z-score, replicate B","z-score, replicate C",activity call
HNF4G,-0.24,-0.17,-0.37,-0.19,inactive
LINC00905,-0.16,0.42,-0.18,-0.72,inactive
SERPINA6,0.17,-0.31,0.62,0.19,inactive
USP14,-0.28,-0.23,-0.2,-0.41,inactive
BNC2,-0.24,-0.04,-0.38,-0.31,inactive
ETV3L,-0.84,-0.56,-0.85,-1.11,inactive
RAB4B,-1.54,-1.74,-1.7,-1.17,inactive
MPHOSPH9,-0.67,-0.74,-0.54,-0.72,inactive
BUD31,1.51,1.4,1.45,1.69,inactive
GABRA3,-0.17,-0.41,-0.13,0.04,inactive
LSS,0.7,0.5,0.71,0.89,inactive
SLC9B2,1.17,1.44,1.07,0.99,inactive
ZNRF1,0.55,0.41,0.63,0.61,inactive
TCIM,0.45,0.78,0.45,0.12,inactive
LINC01270,-0.54,-0.72,-0.36,-0.56,inactive
FAM178B,-0.76,-0.36,-1.12,-0.79,inactive
LOC149913 (retired record),1.06,1.12,0.88,1.19,inactive
UTP25,-1.66,-1.76,-1.69,-1.55,inactive
RPL7L1,0.45,0.1,1.29,-0.04,inactive
PLA2G12A,1.67,2.34,1.02,1.66,inactive
RNF175,0.19,0.06,0.24,0.26,inactive
TSGA10,-1.17,-1.33,-1.11,-1.07,inactive
KCNQ2,-0.1,-0.34,0.04,0,inactive
SERPINB11,0.48,0,0.48,0.98,inactive
C8G,0.93,1.06,0.98,0.75,inactive
G3BP1,0.33,0.27,0.45,0.25,inactive
ACVRL1,1.6,1.75,1.58,1.47,inactive
ZNF480,-0.54,-0.09,-0.88,-0.67,inactive
SBNO2,0.47,0.22,0.62,0.58,inactive
ATF5,0.14,0.12,0.08,0.22,inactive
POM121,-0.13,-0.21,-0.17,0,inactive
SEL1L,-0.58,-0.42,-0.61,-0.73,inactive
CEBPE,-0.89,-0.88,-0.87,-0.91,inactive
ZNF789,-0.45,-0.5,-0.52,-0.32,inactive
SNAPC1,-0.46,-0.75,-0.37,-0.26,inactive
TOMM34,-0.22,-0.08,-0.54,-0.05,inactive
WHRN,-0.81,-1.22,-0.71,-0.5,inactive
COPG2,-0.25,-0.52,-0.42,0.2,inactive
GARIN2,-0.62,-0.68,-0.18,-1.02,inactive
FSD1,0.22,0.04,0.48,0.14,inactive
RASL10A,-0.62,-0.82,-0.59,-0.44,inactive
SLC17A6,1.78,1.72,1.77,1.87,inactive
CLDN12,0.17,0.1,0.1,0.3,inactive
HTR1B,0.24,0.4,0.18,0.12,inactive
RHBDF1,-0.3,-0.41,0.03,-0.52,inactive
LOC389437 (retired record),1.27,1.44,1.39,0.99,inactive
CALCR,-0.84,-0.57,-0.99,-0.97,inactive
LOC388480 (retired record),0.52,0.41,0.64,0.52,inactive
PDK2,-0.76,-0.79,-0.35,-1.13,inactive
HLA-DRB3,2.92,3.14,2.68,2.92,active
ALDH3A2,-0.54,-0.6,-0.47,-0.55,inactive
HERC6,-0.21,-0.21,-0.04,-0.39,inactive
OR1S2,0.3,0.38,0.56,-0.05,inactive
C20orf96,-0.02,-0.15,0.03,0.06,inactive
NKX2-2,0,0.01,-0.17,0.16,inactive
ZC3H12A,-0.1,0.29,-0.38,-0.23,inactive
ZFYVE1,0.55,0.82,0.44,0.4,inactive
